Measured values taken from article PMC5719402, “Protein-Structure Assisted Optimization of 4,5-Dihydroxypyrimidine-6-Carboxamide Inhibitors of Influenza Virus Endonuclease” (Scientific Reports, 2017).

Tests used:
[1] = target: wild type PAN protein (PA endonuclease domain) (Influenza A virus, UniProt C3W5S0)
[2] = target: wild type PAN ΔLoop protein (Influenza A virus, UniProt C3W5S0, DEL51-57/DEL61-72/E59G); experiment: FRET based PAN nuclease activity assay; format: biochemical, influenza A/California/04/2009 H1N1; conditions: read-out: FRET nuclease assay IC50

SMILES: O=C(O)c1nc([C@@H]2CCCN2C(=O)COc2ccccc2Cl)[nH]c(=O)c1O
- Ki [1]: < 10 nM
- IC50 [2]: 45 nM
